The values that follow are results of earlier work, collected in patent publication US8536319B2, “Compounds and methods for detecting ricin and uses thereof” (dated 2013).

By Km is commonly meant the concentration of substrate that gives half-maximal velocity.

The data set addresses ricin toxin A-chain (RTA) (Ricinus communis, UniProt P02879).

In the case of 5′-CGCGCGAGAGCGCG-3′, the “kcat for the depurination” value (RTA, GAGA tetraloop site, pH 4.0) was 3.65 ± 0.233 s⁻¹. In addition, the Michaelis-Menten constant (Km) (read-out: Km for its binding, RTA, pH 4.0) is 8.1 µM.
As to 5′-CGCGCGdAGAGCGCG-3′, the “rate as substrate of RTA” value was 1200 min⁻¹.
